These results are taken from PubChem BioAssay AID1822 (The Scripps Research Institute Molecular Screening Center, 2009).

Only a part is listed here, and it is no random draw. Activity calls are given as the source filed them.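 Rule for the calls: active = inhibition above the campaign mean inhibition over all tested compounds plus 3 SD (cut at about 28% in these data); inactive = the rest.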

The test has as its system M18 aspartyl aminopeptidase (Plasmodium falciparum 3D7). Description: PfM18AAP inhibitors, malaria aminopeptidase, primary screen, biochemical, QFRET, recombinant enzyme (AID 1822).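 Note: 0% = plate median of test compound wells and 100% = 2 mM ZnCl2.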 Conditions: H-Glu-NHMec fluorogenic cleavage, at 7.35 µM, active compounds read high.
The inhibition is the change of the read-out against control, counted positive when it falls. Take `COc1ccc(C(=O)NCC2(N3CCOCC3)CCCCC2)cc1OC`: the inhibition is inactive: -1.38%.

With `N/C(=N\O)c1c(N)no[n+]1[O-]`, the inhibition is inactive: 3.09%.

For `CCOC(=O)N1CCC(Nc2ccc(C)cc2)CC1`, the inhibition was inactive: 5.45%.

In the case of `O=C(OC1CN2CCC1CC2)C1c2ccccc2C=Cc2ccccc21` (centres undefined), the inhibition is inactive: -8.52%.

Regarding `CC(C)(C)OC(=O)N1CCC(N(C(=O)c2ccccc2)c2ccc(Cl)cc2)CC1`, the inhibition is inactive: 6.06%.

As for `N#Cc1ccc(C(=O)NCC2(N3CCCCC3)CCCCC2)cc1`, the inhibition is inactive: 1.17%.

For `CCCN1CCC(Nc2cc(OC)cc(OC)c2)CC1`, the inhibition is inactive: -7.67%.

With `c1ccc(CN2CCC(Nc3ccccc3)CC2)cc1`, the inhibition was inactive: 0.01%.

Take `CN(C)C1(CNC(=O)c2cccc(C#N)c2)CCCCC1`: the inhibition was inactive: -0.38%.

As for `COc1cc(OC)cc(C(=O)NCC2(N3CCCCC3)CCCCC2)c1`, the inhibition was inactive: -7.33%.

In the case of `CCN1CCC(Nc2cccc(F)c2)CC1`, the inhibition was inactive: -9.66%.

Consider `CN(C)c1ccc(C(=O)NCC2(N3CCCCC3)CCCCC2)cc1`, for which the inhibition is inactive: 7.72%.

In the case of `CN1CCC(Nc2ccc(F)c(Cl)c2)CC1`, the inhibition is inactive: 1%.

Regarding `CCOc1ncccc1C(=O)NCC1(N2CCOCC2)CCCCC1`, the inhibition is inactive: -4.64%.

As to `CCCOc1ccc(C(=O)NCC2(N(C)C)CCCCC2)cc1`, the inhibition is inactive: -1.19%.

Take `O=C(O)C1(Nc2ccccc2)CCN(Cc2ccccc2)CC1`: the inhibition is inactive: 0.59%.

For the compound `CC(C)(C)OC(=O)N1CCC(Nc2ccccc2)CC1`, the inhibition was inactive: 2.27%.

For the compound `CCC(CO)(C(=O)OC1CN2CCC1CC2)c1ccccc1` (centres undefined), the inhibition is inactive: -2.97%.

In the case of `COc1cccc(C(=O)N(c2cc(C)cc(C)c2)C2CCN(C(=O)OC(C)(C)C)CC2)c1`, the inhibition is inactive: 3.11%.

For the compound `COc1cc(OC)cc(C(=O)NCC2(N3CCOCC3)CCCCC2)c1`, the inhibition was inactive: -13.5%.

For the compound `CCCOc1ccc(C)cc1CN(CCCl)CCCl`, the inhibition is inactive: -4.04%.

In the case of `CN1CCC(Nc2ccc(Cl)cc2)CC1`, the inhibition is inactive: 1.84%.

For the compound `O=C(NCC1(N2CCCCC2)CCCCC1)c1ccc(=O)[nH]c1`, the inhibition was inactive: 5.67%.

As to `CC(C)(C)OC(=O)N1CCC(N(C(=O)c2ccccc2)c2ccc(F)cc2)CC1`, the inhibition is inactive: -0.12%.

Regarding `COc1ccc(C(=O)NCC2(N3CCCCC3)CCCCC2)c(OC)c1OC`, the inhibition was inactive: -5.94%.

Consider `COc1ccc(C(=O)NCC2(N3CCCCC3)CCCCC2)cc1`, for which the inhibition was inactive: 8.2%.

For the compound `CSc1ccccc1C(=O)NCC1(N2CCCCC2)CCCCC1`, the inhibition is inactive: 16.3%.

For `O=C(NCC1(N2CCOCC2)CCCCC1)c1cc2ccccc2o1`, the inhibition is inactive: 2.02%.

With `Cc1cc(C)cc(N(C(=O)c2ccccc2)C2CCN(C(=O)OC(C)(C)C)CC2)c1`, the inhibition was inactive: 8.27%.

As to `CCOC(=O)N1CCC(Nc2ccc(OC)cc2)CC1`, the inhibition was inactive: 13%.

With `O=C(OC1CN2CCC1CC2)C1c2ccccc2Oc2ccccc21` (centres undefined), the inhibition was inactive: -0.18%.

As for `N#CC1(Nc2ccccc2)CCN(Cc2ccccc2)CC1`, the inhibition is inactive: 0.87%.

For the compound `CCOc1ccc(C)cc1CN(CCCl)CCCl`, the inhibition is inactive: -8.23%.

Consider `CCOC(=O)N1CCC(Nc2ccc(F)cc2)CC1`, for which the inhibition was inactive: 15.2%.

With `COc1ccc(NC2CCN(CCc3ccccc3)CC2)c(OC)c1`, the inhibition was inactive: 8.72%.

Regarding `O=C(NCC1(N2CCCCC2)CCCCC1)c1ccc(F)cc1`, the inhibition was inactive: 5.43%.

`Cc1ccc(OCC(C)C)c(CN(CCCl)CCCl)c1`: the inhibition was inactive: -1%.

Take `COc1cc(C(=O)NCC2(N(C)C)CCCCC2)ccc1OC(F)F`: the inhibition was inactive: 5.98%.

`CCOC(=O)N1CCC(Nc2cccc(C)c2)CC1`: the inhibition was inactive: -7.46%.

As for `O=C(NCC1(N2CCCCC2)CCCCC1)c1ccc(OC(F)F)cc1`, the inhibition was inactive: 14.8%.

Regarding `O=C(NCC1(N2CCCCC2)CCCCC1)c1cccc([N+](=O)[O-])c1`, the inhibition was inactive: 5.56%.

For `N#CC1(Nc2ccccc2)CCN(CCc2ccccc2)CC1`, the inhibition is inactive: -6.11%.

As to `CCN1CCC(Nc2ccc(Cl)cc2)CC1`, the inhibition was inactive: 0.14%.

As for `O=C(NCC1(N2CCCCC2)CCCCC1)c1cccc(C(F)(F)F)c1`, the inhibition is inactive: 4.68%.

For the compound `COc1ccc(NC2CCN(C(=O)OC(C)(C)C)CC2)cc1`, the inhibition is inactive: -0.55%.

Consider `CN1CCN(CCOC(=O)C(O)(c2ccccc2)c2ccccc2)CC1`, for which the inhibition is inactive: -0.87%.

`O=C(NCC1(N2CCOCC2)CCCCC1)c1cc(=O)[nH]c2ccccc12`: the inhibition was inactive: -4.37%.

As to `COc1cc(C(=O)NCC2(N3CCCCC3)CCCCC2)ccc1OC(F)F`, the inhibition is inactive: 6.19%.

Consider `CN(C)c1cccc(C(=O)NCC2(N3CCCCC3)CCCCC2)c1`, for which the inhibition was inactive: -10.5%.

As to `COc1ccc(CN(CCCl)CCCl)cc1Cl`, the inhibition is inactive: -3.09%.

For the compound `CC(C)c1ccc(NC2CCN(C(=O)OC(C)(C)C)CC2)cc1`, the inhibition was inactive: -6.59%.

Take `COc1cc(OC)c(C(=O)NCC2(N(C)C)CCCCC2)cc1OC`: the inhibition is inactive: 1.68%.

With `CN1CCC(Nc2cccc(F)c2)CC1`, the inhibition was inactive: -8.22%.

On to `CCCOc1ccc(C(=O)NCC2(N(C)C)CCCCC2)cc1OC`, for which the inhibition is inactive: 3.85%.
